Test system: PBMC (CD8+ T cells) of HIV-1 infected individuals
Test: IFN-γ Elispot assay with PBMC and synthetic HIV-1 peptides
Type: cell-based, human
Conditions: AL9: HLA-A2; FL9: HLA-B7
Procedure: PBMC were plated on 96-well polyvinylidene difluoride-backed plates (MAIP S45, Millipore, Bedford, Mass.) that had been previously coated with 100 μl of an anti-IFN-γ mAB 1-D1k (0.5 μg/ml, Mabtech, Stockholm, Sweden) overnight at 4° C. Peptides were added directly to the wells at a final concentration of 1×10^−5 molar. Cells were added to the wells at 50,000 to 100,000 cells per well. The plates were incubated at 37° C., 5% CO2 overnight (14-16 h) and then processed as described. IFN-γ producing cells were counted by direct visualization and are expressed as spot forming cells (SFC) per 10^6 cells. The number of specific IFN-γ secreting T-cells was calculated by subtracting the negative control value from the established SFC count. The negative controls were always <20 SFC per 10^6 input cells. Responses ≧40 SFC per 10^6 input cells above background were considered positive. The positive control consisted of incubation of 100,000 PBMC with phytohaemagglutinin (PHA). CD8+ T cell dependence of all responses to synthetic peptides was confirmed by loss of IFN-γ production after CD8+ T cell depletion using magnetic beads (MACS, Miltenyi Biotech, Germany), according to the manufacturer's protocol. Fine mapping of epitopes by Elispot assay was performed, using peptide truncations (e.g., as described in Altfield et al., 2000, J. Virol. 74:8541). […]

Sequence: AIIRILQQL (Human immunodeficiency virus type 1) [AL9]
- individuals expressing the HLA allele that targeted the epitope: 6/18

— patent publication US6974574B2, “Methods of inducing an HIV specific response using a Vpr-specific epitope” (The General Hospital Corporation, priority 2001, dated 2005)
